For assay [1], the target named is WIV1 full length Spike (WIV1). Put plainly: multiplexed bead assay, flow cytometry, antibody at […].
Assay [2] addresses T1, SARS-CoV-2 Spike (S) protein, wild type, full length (SARS-CoV-2, UniProt P0DTC2 14-1208). Briefly: bead assay, flow cytometry.
Assay [3] addresses T1, SARS-CoV-2 Spike (S) protein, wild …. Briefly: bead assay, flow cytometry. The source holds these as a separate data set.
For assay [4] the target is unchanged. Put plainly: bead assay, flow cytometry. This is another data set of the same source.
Assay [5] has the same target. Briefly: bead assay, flow cytometry. This is another data set of the same source.
Assay [6] shares this target. Briefly: bead assay, flow cytometry. The source holds these as a separate data set.
Assay [7] has the same target. Briefly: bead assay, flow cytometry. The source holds these as a separate data set.

Read-outs that look alike come from different tables or passages of the source.

B1: mAb 1444 (antibody, V domains shown)
VH: QVQLVQSGAEVKKPGASVKVSCKASGYTFTAYYMHWVRQAPGQGLEWMGWINPNSDDTNYAQKFQGRVTMTRDTSISTAYMELSRLRSDDTAVYYCAREEGVFTIGDRYFDLWGRGTLVSVSS
VL: QTVVTQEPSFSVSPGGTVTLTCGLSSGSVSTSYYPSWYQQTPGQAPRTLIYNTNTRSSGVPDRFSGSILGNKAALTITGAQADDESDYYCVLYMGSGIWVFGGGTKLTVLG
For the molecule B1, the “median fluorescence intensity, fold over isotype control” value (shortened to “median fluorescence intensity, fold”) in assay [1] is 4.68 fold over isotype.

B2: antibody 268 (antibody, V domains shown)
VH: QVQLQESGPGLVKPSQTLSLTCTVSGGSISSGSYYWSWIRQPAGKGLEWIGRIYTSGSTNYNPSLKSRVTISVDTSKNQFSLKLSSVTAADTAVYYCARELVGGLLGTIDYWGQGTLVTVSS
VL: DIQLTQSPSFLSASVGDRVTITCRASQGISSYLAWYQQKPGKAPKLLIYAASTLQSGVPSRFSGSGSGTEFTLTISSLQPEDFATYYCQQLNSYPYTFGQGTKLEIK
As to B2, the “bead binding signal (fold over isotype)” value turned out to be 298 fold over isotype in assay [2]; 513 fold over isotype in assay [3]; 111 fold over isotype in assay [4]; 0.98 fold over isotype in assay [5]; 30.3 fold over isotype in assay [6].

B3: mAb 1585 (antibody, V domains shown)
VH: QVQLVESGGGVVQPGRSLRLSCAASGFTFSRFTLHWVRQAPGKGLEWVAVISYDGSNKYYADSVKGRFTISRDNSKSTLYLQMNSLRAEDTGVYYCARDPSTVTGYFDYWGQGTLVTVSS
VL: SYVLTQPPSVSVAPGKTAKISCGGDSIGSKSVHWYQQKPGQAPVLVIYYDNDRPSGIPERFSGSNSGNTATLTISRVEAGDEADYYCQVWDIGVVFGGGTKLTVLG
For the molecule B3, in assay [1], the “median fluorescence intensity, fold” value stood at 85.1 fold over isotype.

B4: antibody 287 (antibody, V domains shown)
VH: QLQLQESGPGLVKPSETLSLTCTVSGGSISSSSYYWGWIRQPPGKGLEWIGSIFYSGSTYYNPSLKSRVTIFVDTSKNQFSLKLSSVTAADTAVYYCARFDYQVVDLTGFDYWGQGTLVTVSS
VL: DIQMTQSPSSLSASVGDRVTITCRASQGIRNDLGWYQQKPGKAPKRLIYAASSLQSGVPSRFSGSGSGTEFTLTIRSLQPEDFATYYCLQYNSYPLTFGGGTKVEIK
For the molecule B4, the “bead binding signal (fold over isotype)” value came out at 712 fold over isotype in assay [2]; 1020 fold over isotype in assay [7]; 573 fold over isotype in assay [3]; 474 fold over isotype in assay [4]; 548 fold over isotype in assay [5]; 206 fold over isotype in assay [6].

B5: antibody 261 (antibody, V domains shown)
VH: QVQLVESGGGVVQPGRSLRLSCAASGFTFSSYAMHWVRQAPGKGLEWVAVISYDGSNKYYADSVKGRFTISRDNSKNTLYLQMNSLRAEDTAVYYCARDEAYYDILTGYINAPKNYYYYGMDVWGQGTTVTVSS
VL: DIQMTQSPSSLSASVGDRVTITCRASQGIRNDLGWYQQKPGKAPKRLIYAASSLQSGVPSRFSGSGSGTEFTLTISSLQPEDFATYYCLQHNSYPFTFGPGTKVDIK
In the case of B5, the “bead binding signal (fold over isotype)” value in assay [2] is 543 fold over isotype; in assay [7], 997 fold over isotype; in assay [3] it was 620 fold over isotype; in assay [4] it was 160 fold over isotype; in assay [5] it was 445 fold over isotype; in assay [6], 47.4 fold over isotype.

B6: mAb 1015 (antibody, V domains shown)
VH: EVQLVESGGGLVQPGGSLRLSCAASGFTFSSYWMHWVRQAPGKGLVWVSHINSDGSSTSYADSVKGRFTISRDNAKNTLYLQMNSLRAEDTAVYYCARGLRYFDLDVWGQGTTVTVSS
VL: QSVLTQPPSVSEAPRQRVTISCSGSSSNIGNNAVNWYQQLPGKAPKLLIFYDDLLPSGVSDRFSGSKSGTSASLAISGLQSEDEADYYCAAWDDSLNGGVFGGGTKLTVLG
Turning to B6, the “median fluorescence intensity, fold” value in assay [1] stood at 1.64 fold over isotype.

B7: mAb 1036 (antibody, V domains shown)
VH: QVQLVQSGAEVKKPGSSVKVSCKASGGTLSSYTISWVRQAPGQGLEWMGRIIPILGIADYAQKFQGRVTITADKSTTTAYMDLSSLGSEDTALYYCASAPKDWSSGFDYYYGMDVWGQGTMVTVSS
VL: DIVMTQTPLSLSVTPGQPASISCKSSQSLLNSDGKTYLYWYLQKAGQPPQLLIYEVSNRFSGVPERFSGSGSGTDFTLKISRVEAEDVGVYYCMQSVQLPPYTFGQGTKLEITR
For the molecule B7, the “median fluorescence intensity, fold” value in assay [1] was 2.33 fold over isotype.

B8: mAb 1495 (antibody, V domains shown)
VH: QVQLVESGGGVVQPGRSLRLSCTASGFTFSSYAMHWVRQAPGKGLEWVAVISYDGNNKYYGDSVKGRFTISRDNSKNTLYLQMNSLRAEDTAVYYCAKGADTPHYSGYHFLSVGYYFYGMDVWGQGTTVTVSS
VL: DIQMTQSPSSLSASVGDRVTITCRASQSISYYLNWYQQKPGKAPQLLIYAASSLQSGVPSRFSGSRSGTDFTLTISSLQPEDFATYYCQQSYSTPFTFGPGTKVDIKR
On to B8, for which the “median fluorescence intensity, fold” value in assay [1] came to 4.8 fold over isotype.

B9: mAb 1037 (antibody, V domains shown)
VH: QITLKESGPTLVKPTQTLTLTCTFSGFSLSTSGVGVGWIRQPPGKALEWLALIYWDDDKRYSPSLKSRLTITKDTSKNQVVLTMTNMDPVDTATYYCAHHTITRINDYWGQGTLVTVSS
VL: QSALTQPASVSGSPGQSITISCTATSSDVGAYNYVSWYQQHPGKAPKLMIYDVSKRPSGVSNRFSGSKSGNTASLTISGLQAEDEADYYCSSYTSSSTVFGGGTKLTVLG
B9: the “median fluorescence intensity, fold” value in assay [1] worked out at 7.79 fold over isotype.

B10: antibody 286 (antibody, V domains shown)
VH: QVHLVESGGGVVQPGKSLRLSCAGSGFIFSDFGMHWVRQSPGKGLEWVAVVSYDGSVTKYSDSFEGRFTISRDNSKNTLYLQMDSLRPDDTAIYYCAKGQGANLLHYWGKGILVTVSS
VL: DVVLTQSPLSLPVTLGQPASISCRSSESLVYTDGDTYLHWFHQRPGQSPRRLIYKVSNRDSGVPDRFSGSGSGTDFTLKISRVEAEDVGVYYCMQGTHWPFTFGPGTKVDIK
Take B10: the “bead binding signal (fold over isotype)” value in assay [2] turned out to be 228 fold over isotype; in assay [7], 228 fold over isotype; in assay [4], 64.3 fold over isotype; in assay [5], 48.4 fold over isotype; in assay [6], 9.93 fold over isotype.

B11: mAb 936 (antibody, V domains shown)
VH: EVQLVESGGGLVQPGRSLTLSCAGSGFTFDDYAMHWVRQAPGKGLEWVSGISWNSGSIGYADSVKGRFTISRDNAKNSLYLQMNSLRAEDTALYYCAKDVSYDSSGYYNNAFDIWGQGTMVTVSS
VL: DIQLTQSPSFLSASVGDRVTITCRASQGISSYLAWYQQKPGKAPKLLIYAASTLQSGVPSRFSGSGSGTEFTLTISSLQPEDFATYYCQQLYSYPVTFGQGTRLEIKR
Turning to B11, in assay [1], the “median fluorescence intensity, fold” value stood at 1.9 fold over isotype.

B12: mAb 1135 (antibody, V domains shown)
VH: EVQLVESGGGLVQPGRSLRLSCAASGLTFEDYAMHWVRQVPGKGLEWVSGISWNSGTIGYADSVKGRFIISRDNAKNSLYLQMRSLRAEDTALYYCAKDVGFGELLYYAFDIWGQGTMVTVSS
VL: QSALTQPASVSGSPGQSITISCTGTSSDVGGYNYVSWYQQHPGKAPKLMIYDVSNRPSGVSNRFSGSKSGNTASLTISGLQAEDEADYYCSSYTSSSTVVFGGGTKLTVLG
As for B12, the “median fluorescence intensity, fold” value in assay [1] came out at 2.85 fold over isotype.

B13: antibody 302 (antibody, V domains shown)
VH: QVQLVQSGAEVRKPGASVKVSCKVSGYTLSELSMHWVRQAPGKGLEWMGGFDPEDGERMYAQKFQGRVTMTEDTSTDTAYMELSSLRSEDTAIYYCTTDLSYLWSGKLEPDYWYFALWGRGTLVTVSS
VL: DIVMTQSPDSLAVSLGERATINCKSSQSVLYSSNNKNYLAWYQQKPGQAPKLLISWASTRESGVPDRFSGSGSGTEFTLTISSLQAEDVAVYYCQQYYGTPLTFGQGTKLEIR
On to B13, for which the “bead binding signal (fold over isotype)” value in assay [2] was 532 fold over isotype; in assay [7], 921 fold over isotype; in assay [3], 571 fold over isotype; in assay [4] it was 133 fold over isotype; in assay [5], 388 fold over isotype; in assay [6], 17.4 fold over isotype.

B14: mAb 1538 (antibody, V domains shown)
VH: EVQLLESGGGLVQPGGSLRLSCAASGFTFSSYAMSWVRQAPGKGLEWVSGISDSGGSTYYADYVKGRFTISRDNSKDTLYLQMNSLRAEDTAVYYCAKDRGNEYALTHYYYYAMDVWGQGTTVTVSS
VL: DIQMTQSPSSLSASVGDRVTITCRASQSISSYLNWYQQKPGKAPKLLIYAAYSLQSGVPSRFSGGGSGTDFTLTISSLQPEDFATYFCQQSYSTPITFGQGTRLEIKR
In the case of B14, the “median fluorescence intensity, fold” value in assay [1] came to 2.71 fold over isotype.

B15: mAb 923 (antibody, V domains shown)
VH: EVQLVESGGGVVRPGGSLRLSCAASGFIFDDYDMTWVRQAPGKGLEWVSGISWNGGNTGYADSVKGRFTISRDNAKNSLYLQMNSLRAEDTALYHCAVIMSPIPRYSGYDWAGGAFDIWGQGTMVTVSS
VL: SSELTQDPAVSVALGQTVRITCQGDSLRSYYASWYQQKPGQVPILVIYDKNNRPSGIPDRFSGSSSGNTASLTITGAQAEDEADYYCNSRDSSGNAVVFGGGTKLTVLG
Regarding B15, the “median fluorescence intensity, fold” value in assay [1] was determined as 974 fold over isotype.

B16: mAb 1149 (antibody, V domains shown)
VH: QVQLVQSGAEVKKPGASVKVSCKASGYTFASYDINWVRQATGQGPEWMGWMIPNIGNTGYAQKFQGRVTMTRNTSISTAYMELSSLTSEDTAVYYCARVSRLFNDFGLRHEAPVDFWGQGTRVTVSS
VL: QSVLTQPPSVSGAPGQRVTISCTGSSSNIGAGYDVHWYQQLPGTAPKLLIYGYSSRPSGVPDRFSGSKSGTSASLAITGLQAEDEADYYCQSYDSSLSVLFGGGTKLTVLG
In the case of B16, the “median fluorescence intensity, fold” value in assay [1] came to 2.67 fold over isotype.

The values above are taken from US20220356229A1 (published 2022).
